What was measured:
SARS CoV-2 PLpro [1] = target: T1, SARS CoV-2 PLpro (Severe acute respiratory syndrome coronavirus 2 (2019-nCoV) (SARS-CoV-2), UniProt P0DTD1); conditions: read-out: FlipGFP-PLpro assay EC50
SARS CoV-2 PLpro [2] = target: T1, SARS CoV-2 PLpro; conditions: read-out: FRET Enzymatic assay IC50
[3] = test system: SARS-CoV-2, Isolate USA-WA1/2020; assay: microbe, parasite or virus in culture; conditions: Severe acute respiratory syndrome coronavirus 2, Vero C1008, read-out: EC50 against infectious SARS-CoV-2 (plaque formation)

Row | Compound | EC50 (SARS CoV-2 PLpro [1]) [nM] | IC50 (SARS CoV-2 PLpro [2]) [nM] | EC50 [3] [nM]
1 | 5-(azetidin-3-yloxy)-N- ((R)-1-(3-(5-((((1S,3R)-3- hydroxycyclopentyl)amino) methyl)furan-2- yl)phenyl)ethyl)-2- methylbenzamide [Example 174] | > 60000 | 600 | –
2 | Cc1ccc(NC2CNC2)cc1C(=O)N[C@H](C)c1cccc(-c2ccc(CNC3CCCC3)s2)c1 [XR8-23] | – | – | 2800 ± 400
3 | (R)-5-(azetidin-3-yloxy)- N-(1-(3-(5- ((cyclopentylamino)methyl) thiazol-2- yl)phenyl)ethyl)-2- methylbenzamide [Example 176] | > 60000 | 800 | –

Source: patent US20240166598A1, “COMPOUNDS, COMPOSITIONS, AND METHODS OF USING THE SAME” (priority 2021, published 2024)
